Experimental findings from patent US20030220338A1, “Fungal efflux pump inhibitors” (priority 2001, published 2003) are described below.

Assay [1] relates to Candida albicans YEM15 (over-expressing the CDR1 and CDR2 pumps). Put plainly: Checkerboard / broth microdilution assay, potentiation of fluconazole vs. C. albicans. The following applies: for MIC: Candida albicans, 48 h; for MPC8 = concentration of efflux pump inhibitor necessary to reduce the fluconazole MIC 8-fold: in combination with fluconazole, strain YEM15.
The subject of assay [2] is C. glabrata YEM19 (over-expressing the CgCDR1 and CgCDR2 pumps). In words: Checkerboard / broth microdilution assay, potentiation of fluconazole vs. C. glabrata. Particulars: for MIC: Nakaseomyces glabratus, 48 h; for MPC8: in combination with fluconazole, strain YEM19. On the technique in general: Broth dilution looks for growth in wells or tubes with falling amounts of substance.

Molecules are shown by their SMILES.

As usually defined, the MIC is the least concentration at which growth counts as inhibited.

For the molecule `COc1ccc(N(C(=O)Nc2ccc(F)cc2)C(C)c2nc3ccccc3c(=O)n2N2CCN(CC(=O)N3CCOCC3)CC2)cc1` (centres unmarked) [Compound 114], in assay [1], the MIC was over 32 µg/mL and the “MPC8 = concentration of efflux pump inhibitor necessary to reduce the fluconazole MIC 8-fold” value was found to be 2 µg/mL. Moreover, in assay [2], the MIC was over 32 µg/mL and the MPC8 is 4 µg/mL.

Regarding `COc1ccc(N(C(=O)Nc2cccc(Cl)c2)C(C)c2nc3ccccc3c(=O)n2N2CCN(CC(=O)N3CCOCC3)CC2)c(OC)c1` (centres unmarked) [Compound 115], in assay [1], the MIC is over 32 µg/mL and the “MPC8 = concentration of efflux pump inhibitor necessary to reduce the fluconazole MIC 8-fold” value amounted to 1 µg/mL. In addition, in assay [2], the MIC is over 32 µg/mL and the MPC8 came out at 2 µg/mL.

As to `COc1ccc(N(C(=O)Nc2ccccc2)C(C)c2nc3ccccc3c(=O)n2N2CCN(CC(=O)N3CCOCC3)CC2)c(OC)c1` (centres unmarked) [Compound 116], in assay [1], the MIC is over 32 µg/mL and the “MPC8 = concentration of efflux pump inhibitor necessary to reduce the fluconazole MIC 8-fold” value was 0.5 µg/mL. For the same molecule, in assay [2], the MIC is over 32 µg/mL and the MPC8 is 1 µg/mL.

Regarding `COc1ccc(N(C(=O)Nc2ccc(F)cc2)C(C)c2nc3ccccc3c(=O)n2N2CCN(CC(=O)N3CCCC3)CC2)c(OC)c1` (centres unmarked) [Compound 117], in assay [1], the MIC is over 32 µg/mL and the “MPC8 = concentration of efflux pump inhibitor necessary to reduce the fluconazole MIC 8-fold” value amounted to 0.125 µg/mL. In assay [2], the MIC is over 32 µg/mL and the MPC8 came out at 0.5 µg/mL.

As for `COc1ccc(N(C(=O)Nc2ccc(F)cc2)C(C)c2nc3ccccc3c(=O)n2N2CCN(CC(=O)N3CCCCC3)CC2)c(OC)c1` (centres unmarked) [Compound 118], in assay [1], the MIC was over 32 µg/mL and the “MPC8 = concentration of efflux pump inhibitor necessary to reduce the fluconazole MIC 8-fold” value was found to be 0.0625 µg/mL. Besides, in assay [2], the MIC is over 32 µg/mL and the MPC8 stood at 0.5 µg/mL.

Take `COc1ccc(N(C(=O)Nc2ccc(F)cc2)C(C)c2nc3ccccc3c(=O)n2N2CCN(CC(=O)N3CCSCC3)CC2)c(OC)c1` (centres unmarked) [Compound 119]: in assay [1], the MIC is over 32 µg/mL and the “MPC8 = concentration of efflux pump inhibitor necessary to reduce the fluconazole MIC 8-fold” value is 0.0625 µg/mL. Also, in assay [2], the MIC is over 32 µg/mL and the MPC8 worked out at 0.25 µg/mL.

As to `COc1ccc(N(C(=O)Nc2ccc(F)cc2)C(C)c2nc3ccccc3c(=O)n2N2CCN(CC(=O)N3CCN(C)CC3)CC2)c(OC)c1` (centres unmarked) [Compound 120], in assay [1], the MIC was over 32 µg/mL and the “MPC8 = concentration of efflux pump inhibitor necessary to reduce the fluconazole MIC 8-fold” value is 8 µg/mL. Besides, in assay [2], the MIC was over 32 µg/mL and the MPC8 is 1 µg/mL.

As for `COc1ccc(N(C(=O)Nc2ccc(F)cc2)C(C)c2nc3ccccc3c(=O)n2N2CCN(CC(=O)N(C)C)CC2)c(OC)c1` (centres unmarked) [Compound 121], in assay [1], the MIC was over 32 µg/mL and the “MPC8 = concentration of efflux pump inhibitor necessary to reduce the fluconazole MIC 8-fold” value was found to be 0.125 µg/mL. Further, in assay [2], the MIC is over 32 µg/mL and the MPC8 amounted to 1 µg/mL.

Consider `COc1ccc(N(C(=O)Nc2ccc(F)cc2)C(C)c2nc3ccc(F)cc3c(=O)n2N2CCN(CC(=O)N3CCOCC3)CC2)c(OC)c1` (centres unmarked) [Compound 122], for which, in assay [1], the MIC was over 32 µg/mL and the “MPC8 = concentration of efflux pump inhibitor necessary to reduce the fluconazole MIC 8-fold” value turned out to be 0.125 µg/mL. Besides, in assay [2], the MIC worked out at 32 µg/mL and the MPC8 worked out at 0.5 µg/mL.

As for `COc1ccc(N(C(=O)Nc2cccc(Cl)c2)C(C)c2nc3ccccc3c(=O)n2N2CCNCC2)c(OC)c1` (centres unmarked) [Compound 123], in assay [1], the MIC was over 32 µg/mL and the “MPC8 = concentration of efflux pump inhibitor necessary to reduce the fluconazole MIC 8-fold” value was determined as 16 µg/mL. In assay [2], the MIC is over 32 µg/mL and the MPC8 was 32 µg/mL.

As to `COc1ccc(N(C(=O)Nc2cccc(Cl)c2)C(C)c2nc3ccccc3c(=O)n2N2CCN(S(C)(=O)=O)CC2)c(OC)c1` (centres unmarked) [Compound 124], in assay [1], the minimal inhibitory concentration (MIC) is over 32 µg/mL and the “MPC8 = concentration of efflux pump inhibitor necessary to reduce the fluconazole MIC 8-fold” value is “≦0.03 μg/ml”. In addition, in assay [2], the MIC was over 32 µg/mL and the MPC8 was determined as 2 µg/mL.

Turning to `COc1ccc(N(C(=O)Nc2ccc(F)cc2)C(C)c2nc3ccc(F)cc3c(=O)n2N2CCN(S(C)(=O)=O)CC2)c(OC)c1` (centres unmarked) [Compound 125], in assay [1], the MIC was over 32 µg/mL and the “MPC8 = concentration of efflux pump inhibitor necessary to reduce the fluconazole MIC 8-fold” value is given as “≦0.03 μg/ml”. For the same molecule, in assay [2], the MIC is over 32 µg/mL and the MPC8 was found to be 1 µg/mL.

Consider `COc1ccc(N(C(=O)Nc2ccccc2)C(C)c2nc3ccccc3c(=O)n2N2CCN(S(C)(=O)=O)CC2)c(OC)c1` (centres unmarked) [Compound 126], for which, in assay [1], the MIC is over 32 µg/mL and the “MPC8 = concentration of efflux pump inhibitor necessary to reduce the fluconazole MIC 8-fold” value was 0.125 µg/mL. In assay [2], the MIC is over 32 µg/mL and the MPC8 is 4 µg/mL.

Take `COc1ccc(N(C(=O)Nc2ccccc2)C(C)c2nc3ccccc3c(=O)n2N2CCNCC2)c(OC)c1` (centres unmarked) [Compound 128]: in assay [1], the MIC was over 32 µg/mL and the “MPC8 = concentration of efflux pump inhibitor necessary to reduce the fluconazole MIC 8-fold” value is 32 µg/mL. In assay [2], the MIC was over 32 µg/mL and the MPC8 amounted to 32 µg/mL.

In the case of `COc1ccc(N(C(=O)Nc2cccc(F)c2)C(C)c2nc3ccccc3c(=O)n2N2CCNCC2)c(OC)c1` (centres unmarked) [Compound 129], in assay [1], the MIC was over 32 µg/mL and the “MPC8 = concentration of efflux pump inhibitor necessary to reduce the fluconazole MIC 8-fold” value is 32 µg/mL. Also, in assay [2], the MIC is over 32 µg/mL and the MPC8 was 32 µg/mL.

In the case of `COc1ccc(N(C(=O)Nc2ccc(F)cc2)C(C)c2nc3ccccc3c(=O)n2N2CCN(S(C)(=O)=O)CC2)c(OC)n1` (centres unmarked) [Compound 130], in assay [1], the MIC was over 32 µg/mL and the “MPC8 = concentration of efflux pump inhibitor necessary to reduce the fluconazole MIC 8-fold” value stood at 2 µg/mL. In assay [2], the MIC is over 32 µg/mL and the MPC8 stood at 32 µg/mL.

Take `COc1ccc(N(C(=O)Nc2ccc(F)cc2)C(C)c2nc3ccccc3c(=O)n2N2CCN(C(N)=O)CC2)c(OC)c1` (centres unmarked) [Compound 133]: in assay [1], the MIC is over 32 µg/mL and the “MPC8 = concentration of efflux pump inhibitor necessary to reduce the fluconazole MIC 8-fold” value was 8 µg/mL. Further, in assay [2], the MIC is over 32 µg/mL and the MPC8 was determined as 16 µg/mL.

For the molecule `COc1ccc(N(C(=O)Nc2ccc(F)cc2)C(C)c2nc3ccccc3c(=O)n2N2CCN(C(=O)NCCO)CC2)c(OC)n1` (centres unmarked) [Compound 134], in assay [1], the MIC is over 32 µg/mL and the “MPC8 = concentration of efflux pump inhibitor necessary to reduce the fluconazole MIC 8-fold” value is 32 µg/mL. Moreover, in assay [2], the MIC was over 32 µg/mL and the MPC8 came out at 16 µg/mL.

In the case of `COCCNC(=O)N1CCN(n2c(C(C)N(C(=O)Nc3ccc(F)cc3)c3ccc(OC)nc3OC)nc3ccccc3c2=O)CC1` (centres unmarked) [Compound 135], in assay [1], the MIC is over 32 µg/mL and the “MPC8 = concentration of efflux pump inhibitor necessary to reduce the fluconazole MIC 8-fold” value was 4 µg/mL. In assay [2], the MIC was over 32 µg/mL and the MPC8 amounted to 2 µg/mL.

Regarding `COc1ccc(N(C(=O)Nc2ccc(F)cc2)C(C)c2nc3ccccc3c(=O)n2N2CCN(C(=O)NCCO)CC2)c(OC)c1` (centres unmarked) [Compound 136], in assay [1], the MIC was over 32 µg/mL and the “MPC8 = concentration of efflux pump inhibitor necessary to reduce the fluconazole MIC 8-fold” value is 8 µg/mL. Moreover, in assay [2], the MIC was over 32 µg/mL and the MPC8 is 2 µg/mL.

Take `COc1ccc(N(C(=O)Nc2ccc(F)cc2)C(C)c2nc3ccccc3c(=O)n2N2CCN(C(=O)CN3CCOCC3)CC2)c(OC)c1` (centres unmarked) [Compound 137]: in assay [1], the MIC was over 32 µg/mL and the “MPC8 = concentration of efflux pump inhibitor necessary to reduce the fluconazole MIC 8-fold” value is 1 µg/mL. For the same molecule, in assay [2], the MIC is over 32 µg/mL and the MPC8 amounted to 0.5 µg/mL.

As for `COc1ccc(N(C(=O)Nc2ccc(F)cc2)C(C)c2nc3ccccc3c(=O)n2N2CCN(C(=O)CN3CCOCC3)CC2)c(OC)n1` (centres unmarked) [Compound 139], in assay [1], the MIC is over 32 µg/mL and the “MPC8 = concentration of efflux pump inhibitor necessary to reduce the fluconazole MIC 8-fold” value amounted to 2 µg/mL. Besides, in assay [2], the MIC is over 32 µg/mL and the MPC8 was 1 µg/mL.

In the case of `COc1ccc(N(C(=O)Nc2ccc(F)cc2)C(C)c2nc3ccccc3c(=O)n2N2CCN(C(=O)Cn3ccnc3)CC2)c(OC)c1` (centres unmarked) [Compound 141], in assay [1], the MIC is over 32 µg/mL and the “MPC8 = concentration of efflux pump inhibitor necessary to reduce the fluconazole MIC 8-fold” value worked out at 16 µg/mL. In assay [2], the MIC is over 32 µg/mL and the MPC8 was 4 µg/mL.

`COc1ccc(N(C(=O)Nc2ccc(F)cc2)C(C)c2nc3ccccc3c(=O)n2N2CCN(C(=O)CC#N)CC2)c(OC)c1` (centres unmarked) [Compound 142]: in assay [1], the MIC was over 32 µg/mL and the “MPC8 = concentration of efflux pump inhibitor necessary to reduce the fluconazole MIC 8-fold” value stood at 2 µg/mL. Moreover, in assay [2], the MIC was over 32 µg/mL and the MPC8 worked out at 4 µg/mL.

With `COc1ccc(N(C(=O)Nc2ccc(F)cc2)C(C)c2nc3ccccc3c(=O)n2N2CCN(C(=O)CN3CCCC3)CC2)c(OC)c1` (centres unmarked) [Compound 143], in assay [1], the MIC is over 32 µg/mL and the “MPC8 = concentration of efflux pump inhibitor necessary to reduce the fluconazole MIC 8-fold” value worked out at 4 µg/mL. Further, in assay [2], the MIC is over 32 µg/mL and the MPC8 was determined as 1 µg/mL.

As to `COc1ccc(N(C(=O)Nc2ccc(F)cc2)C(C)c2nc3ccccc3c(=O)n2N2CCN(C(=O)CN3CCC(O)C3)CC2)c(OC)c1` (centres unmarked) [Compound 144], in assay [1], the MIC was over 32 µg/mL and the “MPC8 = concentration of efflux pump inhibitor necessary to reduce the fluconazole MIC 8-fold” value came to 32 µg/mL. In addition, in assay [2], the MIC is over 32 µg/mL and the MPC8 was 2 µg/mL.

On to `COc1ccc(N(C(=O)Nc2ccc(F)cc2)C(C)c2nc3ccccc3c(=O)n2N2CCN(C(=O)CN3CCCCC3)CC2)c(OC)n1` (centres unmarked) [Compound 145], for which, in assay [1], the MIC was over 32 µg/mL and the “MPC8 = concentration of efflux pump inhibitor necessary to reduce the fluconazole MIC 8-fold” value was found to be 2 µg/mL. In assay [2], the MIC is over 32 µg/mL and the MPC8 was determined as 0.5 µg/mL.

`COc1ccc(N(C(=O)Nc2ccc(F)cc2)C(C)c2nc3ccccc3c(=O)n2N2CCN(C(=O)CN3CCSCC3)CC2)c(OC)c1` (centres unmarked) [Compound 146]: in assay [1], the MIC was over 32 µg/mL and the “MPC8 = concentration of efflux pump inhibitor necessary to reduce the fluconazole MIC 8-fold” value turned out to be 0.25 µg/mL. In addition, in assay [2], the MIC was over 32 µg/mL and the MPC8 amounted to 0.25 µg/mL.

For the molecule `COc1ccc(N(C(=O)Nc2ccc(F)cc2)C(C)c2nc3ccccc3c(=O)n2N2CCN(C(=O)CN3CCC(O)CC3)CC2)c(OC)c1` (centres unmarked) [Compound 147], in assay [1], the MIC is over 32 µg/mL and the “MPC8 = concentration of efflux pump inhibitor necessary to reduce the fluconazole MIC 8-fold” value was 16 µg/mL. Besides, in assay [2], the MIC was over 32 µg/mL and the MPC8 was 2 µg/mL.
